Test results from patent US7119073B2, “Peptides and their use as inhibitors of hepatitis C virus ns3 protease” (Istituto Di Ricerche Di Biologia Molecolare P. Angeletti SpA, priority 2001, dated 2006).

Amino acid sequences for entries named in this document (tags omitted). A change or cut given only in a name is not applied to a line headed by its entry. Residues count along the entry.
UniProt P26663, 1027-1657 limits assumed: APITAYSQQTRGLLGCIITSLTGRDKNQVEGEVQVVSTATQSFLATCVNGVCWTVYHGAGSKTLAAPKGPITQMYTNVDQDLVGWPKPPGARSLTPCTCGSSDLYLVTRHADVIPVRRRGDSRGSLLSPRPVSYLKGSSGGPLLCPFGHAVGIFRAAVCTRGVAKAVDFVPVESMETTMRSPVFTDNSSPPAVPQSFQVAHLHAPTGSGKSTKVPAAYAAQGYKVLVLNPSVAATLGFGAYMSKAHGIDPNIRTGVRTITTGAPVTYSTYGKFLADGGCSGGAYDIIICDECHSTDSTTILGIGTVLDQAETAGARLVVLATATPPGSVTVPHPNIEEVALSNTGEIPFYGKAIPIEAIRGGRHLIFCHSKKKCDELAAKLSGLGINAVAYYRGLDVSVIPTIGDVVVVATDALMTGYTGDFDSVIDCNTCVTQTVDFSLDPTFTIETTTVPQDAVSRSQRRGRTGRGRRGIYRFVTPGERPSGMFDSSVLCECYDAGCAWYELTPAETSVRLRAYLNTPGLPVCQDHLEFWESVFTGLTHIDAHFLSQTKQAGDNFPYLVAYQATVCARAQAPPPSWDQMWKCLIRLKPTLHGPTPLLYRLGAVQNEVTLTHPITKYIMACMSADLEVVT
UniProt P26663, 1658-1711 partner limits assumed: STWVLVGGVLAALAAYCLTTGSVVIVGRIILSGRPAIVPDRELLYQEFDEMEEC
UniProt P26663, 1027-1206 limits assumed: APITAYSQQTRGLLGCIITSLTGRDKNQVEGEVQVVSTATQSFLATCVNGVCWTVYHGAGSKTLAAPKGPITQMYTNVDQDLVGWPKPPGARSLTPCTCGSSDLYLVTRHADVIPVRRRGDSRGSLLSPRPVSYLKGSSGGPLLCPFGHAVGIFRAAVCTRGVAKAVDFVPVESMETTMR

These compounds were tested against full length NS3 protein noncovalently complexed with the full-length NS4A cofactor protein (NS3/NS4A complex) (Hepatitis C virus genotype 1b, UniProt P26663) (assay: Full-length NS3-NS4A heterodimer protein assay (Assay A)). Conditions: read-out: Assay A, Table 6.
Method: Full-Length NS3-NS4A Heterodimer Protein Assay (Assay A)
(Gallinari, P., Paolini, C., Brennan, D., Nardi, C., Steinkühler, C. and De Francesco, R. Modulation of hepatitis C virus NS3 protease and helicase activities through the interaction with NS4A. Biochemistry 38, 5620–5632, 1999)
In this assay the full length NS3 protein spanning residues 1027–1657 of the HCV polyprotein, noncovalently complexed with the full-length NS4A cofactor protein (residues 1658–1711) was used. Assays were performed in 60 μl of a buffer containing 50 mM Hepes pH 7.5, 0.15 M NaCl, 0.1% (v/v) Triton X-100, 15% (v/v) glycerol, 10 mM DTT, 2 nM NS3/NS4A complex. To this assay mix 10 μM (final concentration) of a peptide substrate corresponding to the NS5AB cleavage site and having the sequence of the NS5A-NS5B peptide, were added. Incubation times at 23° C. were adjusted to obtain <10% conversion. Reactions were stopped by the addition of 40 μl of 1% TFA. Cleavage was determined by HPLC using a Merck-Hitachi chromatograph equipped with an autosampler. 80 μl samples were injected on a Lichrospher C18 reversed phase cartridge column (4×74 mm, 5 μm, Merck) and fragments were separated using a 10–40% acetonitrile gradient at 5%/min using a flow rate of 2.5 ml/min. Peak detection was done by monitoring both the absorbance at 220 nm and tryptophan fluorescence (λex=280 nm, λem=350 nm). Cleavage products were quantitated by integration of chromatograms with respect to appropriate standards. Kinetic parameters were calculated from nonlinear least-squares fit of initial rates as a function of substrate concentration with the help of a Kaleidagraph software, assuming Michaelis-Menten kinetics.
Ki values of peptide inhibitors were calculated from substrate titration experiments performed in the presence of increasing amounts of inhibitor. Experimental data sets were simultaneously fitted to eg.1 using a multicurve fit macro with the help of a Sigmaplot software: V=(VmaxS)/(Km([…])+S); (eq.1) Alternatively, Ki values were derived from IC50 values, calculated using a four-parameter logistic function, according to eq.2: IC50=(1+S/Km)Ki (eq.2)

| SMILES | IC50 [µM] |
| --- | --- |
| CC(C)[C@H](O)C(=O)N1C[C@H](OCC2CC2)C[C@H]1C(=O)N[C@@H](CC(F)F)C(=O)NCCc1c(F)cc(C(=O)O)cc1F | < 100 |
| CC(C)[C@H](O)C(=O)N1C[C@H](OC2CCCCC2)C[C@H]1C(=O)N[C@@H](CC(F)F)C(=O)NCCc1c(F)cc(C(=O)O)cc1F | < 100 |
| CC(C)[C@H](O)C(=O)N1C[C@H](c2ccccc2)C[C@H]1C(=O)N[C@@H](CC(F)F)C(=O)NCCc1c(F)cc(C(=O)O)cc1F | < 100 |
| CC(C)(C)OC(=O)c1cc(F)c(CCNC(=O)[C@H](CC(F)F)NC(=O)[C@@H]2C[C@@H](c3ccccc3)CN2C(=O)Cc2ccncc2)c(F)c1 | < 100 |
| O=C(O)c1cc(F)c(CCNC(=O)[C@H](CC(F)F)NC(=O)[C@@H]2C[C@@H](c3ccccc3)CN2C(=O)Cc2cccs2)c(F)c1 | < 100 |
| CC(C)[C@H](O)C(=O)N1C[C@H](OC(C)(C)C)C[C@H]1C(=O)N[C@@H](CC(F)F)C(=O)NCCc1c(F)cc(C(=O)O)cc1F | < 100 |
| CCC(CC)C(O)C(=O)N1C[C@H](c2ccccc2)C[C@H]1C(=O)N[C@@H](CC(F)F)C(=O)NCCc1c(F)cc(C(=O)O)cc1F (some centres unmarked) | < 100 |
| CC(C)[C@H](O)C(=O)N1C[C@H](SCc2ccccc2)C[C@H]1C(=O)N[C@@H](CC(F)F)C(=O)NCCc1c(F)cc(C(=O)O)cc1F | < 100 |
| CC(C)[C@H](O)C(=O)N1C[C@H](OCc2noc(C(C)(C)C)n2)C[C@H]1C(=O)N[C@@H](CC(F)F)C(=O)NCCc1c(F)cc(C(=O)O)cc1F | < 100 |
| CC(C)[C@H](O)C(=O)N1C[C@H](c2ccccc2)C[C@H]1C(=O)N[C@@H](CC(F)F)C(=O)NCCc1c(F)cc(-c2nn[nH]n2)cc1F | < 100 |
| O=C(O)c1cc(F)c(CCNC(=O)[C@H](CC(F)F)NC(=O)[C@@H]2C[C@@H](c3ccccc3)CN2C(=O)[C@@H](O)C2CCCC2)c(F)c1 | < 100 |
| CCC(CC)CO[C@@H]1C[C@@H](C(=O)N[C@@H](CC(F)F)C(=O)NCCc2c(F)cc(C(=O)O)cc2F)N(C(=O)[C@@H](O)C(C)C)C1 | < 100 |
| CC(C)[C@H](O)C(=O)N1C[C@H](c2ccccc2)C[C@H]1C(=O)N[C@@H](CC(F)F)C(=O)NCCc1ccc(-c2nn[nH]n2)cc1 | < 100 |
| CC(C)[C@H](O)C(=O)N1C[C@H](C2CCCCC2)C[C@H]1C(=O)N[C@@H](CC(F)F)C(=O)NCCc1c(F)cc(C(=O)O)cc1F | < 100 |
| O=C(O)c1cc(F)c(CCNC(=O)[C@H](CC(F)F)NC(=O)[C@@H]2C[C@@H](c3ccccc3)CN2C(=O)[C@@H](O)c2ccccc2)c(F)c1 | < 100 |
| CC(C)C[C@H](O)C(=O)N1C[C@H](c2ccccc2)C[C@H]1C(=O)N[C@@H](CC(F)F)C(=O)NCCc1c(F)cc(C(=O)O)cc1F | < 100 |
| CC(C)[C@H](O)C(=O)N1C[C@H](OCc2ccc(Cl)c(Cl)c2)C[C@H]1C(=O)N[C@@H](CC(F)F)C(=O)NCCc1c(F)cc(C(=O)O)cc1F | < 100 |

| SMILES | IC50 [µM] |
| --- | --- |
| CCCCCC(CC)C(O)C(=O)N1C[C@H](c2ccccc2)C[C@H]1C(=O)N[C@@H](CC(F)F)C(=O)NCCc1c(F)cc(C(=O)O)cc1F (some centres unmarked) | < 100 |
| O=C(O)CCC(=O)N1C[C@H](c2ccccc2)C[C@H]1C(=O)N[C@@H](CC(F)F)C(=O)NCCc1c(F)cc(C(=O)O)cc1F | < 100 |
| CC(C)[C@H](O)C(=O)N1C[C@H](OCc2ccccc2Cl)C[C@H]1C(=O)N[C@@H](CC(F)F)C(=O)NCCc1c(F)cc(C(=O)O)cc1F | < 100 |
| O=C(O)c1cc(F)c(CCNC(=O)[C@H](CC(F)F)NC(=O)[C@@H]2C[C@@H](c3ccccc3)CN2C(=O)CC2CCCC2)c(F)c1 | < 100 |
| CCC(C)[C@@H](O)C(=O)N1C[C@H](c2ccccc2)C[C@H]1C(=O)N[C@@H](CC(F)F)C(=O)NCCc1c(F)cc(C(=O)O)cc1F (some centres unmarked) | < 100 |
| O=C(O)c1cc(F)c(CCNC(=O)[C@H](CC(F)F)NC(=O)[C@@H]2C[C@@H](c3ccccc3)CN2C(=O)C(O)C2CC2)c(F)c1 (some centres unmarked) | < 100 |
| O=C(O)c1cc(F)c(CCNC(=O)[C@H](CC(F)F)NC(=O)[C@@H]2C[C@@H](c3ccccc3)CN2C(=O)Cc2sc(O)nc2O)c(F)c1 | < 100 |
| CC(C)[C@H](O)C(=O)N1C[C@H](OCc2ccc(Br)cc2)C[C@H]1C(=O)N[C@@H](CC(F)F)C(=O)NCCc1c(F)cc(C(=O)O)cc1F | < 100 |
| CC(C)[C@H](O)C(=O)N1C[C@H](OCc2ccccc2)C[C@H]1C(=O)N[C@@H](CC(F)F)C(=O)NCCc1c(F)cc(C(=O)O)cc1F | < 100 |
| O=C(O)c1cc(F)c(CCNC(=O)[C@H](CC(F)F)NC(=O)[C@@H]2C[C@@H](c3ccccc3)CN2C(=O)[C@H](O)C2CCCC2)c(F)c1 | < 100 |
| CC(C)CC(=O)N1C[C@H](c2ccccc2)C[C@H]1C(=O)N[C@@H](CC(F)F)C(=O)NCCc1c(F)cc(C(=O)O)cc1F | < 100 |
| CC(C)=CCO[C@@H]1C[C@@H](C(=O)N[C@@H](CC(F)F)C(=O)NCCc2c(F)cc(C(=O)O)cc2F)N(C(=O)[C@@H](O)C(C)C)C1 | < 100 |
| CC(C)(C)[C@H](O)C(=O)N1C[C@H](c2ccccc2)C[C@H]1C(=O)N[C@@H](CC(F)F)C(=O)NCCc1c(F)cc(C(=O)O)cc1F | < 100 |
| CC(C)[C@H](O)C(=O)N1C[C@H](OCc2ccc(-c3ccccc3)cc2)C[C@H]1C(=O)N[C@@H](CC(F)F)C(=O)NCCc1c(F)cc(C(=O)O)cc1F | < 100 |
| CCC(C)[C@H](O)C(=O)N1C[C@H](c2ccccc2)C[C@H]1C(=O)N[C@@H](CC(F)F)C(=O)NCCc1c(F)cc(C(=O)O)cc1F (some centres unmarked) | < 100 |
| CC(C)[C@H](O)C(=O)N1C[C@H](c2ccccc2)C[C@H]1C(=O)N[C@@H](CC(F)F)C(=O)NCCc1ccc(-c2noc(=O)[nH]2)cc1 | < 100 |
| O=C(O)c1cc(F)c(CCNC(=O)[C@H](CC(F)F)NC(=O)[C@@H]2C[C@@H](c3ccccc3)CN2C(=O)[C@@H](O)C2CCCCC2)c(F)c1 | < 100 |

Same assay, conditions: read-out: AssayA, Table 5

| SMILES | IC50 [µM] |
| --- | --- |
| CC(C)COC(=O)N[C@H](C(=O)N1C[C@H](C2CCCCC2)C[C@H]1C(=O)N[C@@H](CC(F)F)C(=O)NCCc1c(F)cc(-c2nn[nH]n2)cc1F)C(C)C | < 1 |
| CC(C)COC(=O)N[C@H](C(=O)N1C[C@H](SC2CCCCC2)C[C@H]1C(=O)N[C@@H](CC(F)F)C(=O)NCCc1c(F)cc(C(=O)O)cc1F)C(C)C | < 10 |
| CC(C)COC(=O)N[C@H](C(=O)N1C[C@H](c2ccccc2)C[C@H]1C(=O)N[C@@H](CC(F)F)C(=O)NCCc1c(F)cc(C(=O)O)cc1F)C(C)C | < 1 |
| CC(C)COC(=O)N[C@H](C(=O)N1C[C@H](C2CCCCC2)C[C@H]1C(=O)N[C@@H](CC(F)F)C(=O)NCCc1c(F)ccc(OC(C)C(=O)O)c1F)C(C)C (some centres unmarked) | < 1 |
| CC(C)[C@H](NC(=O)OCC(C)(C)C)C(=O)N1C[C@H](C2CCCCC2)C[C@H]1C(=O)N[C@@H](CC(F)F)C(=O)NCCc1c(F)cc(C(=O)O)cc1F | < 1 |
| CC(C)COC(=O)N[C@H](C(=O)N1C[C@H](c2ccccc2)C[C@H]1C(=O)N[C@@H](CS)C(=O)NCCc1ccc(C(=O)O)cc1Cl)C1CCCC1 | < 1 |

These compounds were tested against NS3 protease domain complexed to a modified form of the NS4A peptide (Pep4AK) (Hepatitis C virus genotype 1b, UniProt P26663) (assay: HCV NS3 protease domain/NS4A cofactor peptide assay (Assay B)). Conditions: read-out: Assay B (IC50 class); NS3 protease domain/NS4A cofactor peptide assay.
Source text: HCV NS3 Protease Domain/ NS4A Cofactor Peptide Assay (Assay B)
(Steinkühler, C., Biasiol, G., Brunetti, M., Urbani, A., Koch, U., Cortese, R., Pessi, A., and De Francesco, R. Product inhibition of the hepatitis C virus NS3 protease. Biochemistry 37, 8899–8905, 1998)
In this assay the NS3 protease domain (residues 1027–1206 of the HCV polyprotein) complexed to a modified form of the NS4A peptide, spanning residues 21–34 of the NS4A cofactor in addition to a solubilizing lys-tag, Pep 4AK were used. As substrate, peptide 4AB based on the sequence of the NS4A/NS4B cleavage site of the HCV polyprotein, was added.
Cleavage assays were performed in 60 μl 50 mM Hepes pH7.5, 1% (w/v) CHAPS, 15% (v/v) glycerol, 10 mM DTT (buffer A), containing 80 μM Pep4AK. Buffer solutions were preincubated for 10 min with 10–200 nM protease and reactions were started by addition of 10 μM substrate. Six duplicate data points at different substrate concentrations were used to calculate kinetic parameters. Incubation times were chosen in order to obtain <7% substrate conversion and reactions were stopped by addition of 40 μl 1% TFA. Reactions were analysed by HPLC essentially as described above. The fluorescence detector was set to monitor tyrosine fluorescence of substrate and cleavage product (λex=260 nm, λem=305 nm).

| SMILES | IC50 [µM] |
| --- | --- |
| CC(C)C[C@H](NC(=O)C1(Cc2ccsc2C(=O)O)Cc2ccccc2N1)C(=O)N[C@@H](CS)C(=O)NCCc1ccc(C(=O)O)cc1 (some centres unmarked) | < 100 |
| CC(C)C[C@H](NC(=O)C1(Cc2ccsc2C(=O)O)Cc2ccccc2N1)C(=O)N[C@@H](CC(F)F)C(=O)NCCc1c(F)cc(C(=O)O)cc1F (single isomer, unassigned) [Compound 708b] | < 100 |

Same assay, conditions: read-out: Assay B; Table 3; NS3 protease domain/Pep4AK

| SMILES | IC50 [µM] |
| --- | --- |
| CC(=O)N[C@H](C(=O)N[C@@H](CCC(=O)O)C(=O)N[C@@H](CC1CCCCC1)C(=O)N[C@@H](CS)C(=O)NCCc1ccccc1)C(c1ccccc1)c1ccccc1 | < 100 |
| CC(=O)N[C@H](C(=O)N[C@@H](CCC(=O)O)C(=O)N[C@@H](CC1CCCCC1)C(=O)N[C@@H](CC(F)F)C(=O)NOCc1ccccc1)C(c1ccccc1)c1ccccc1 | < 100 |
